Anti-infective test results gathered from many reports (values: NIAID ChemDB through PubChem).

Shared fields: tests in culture; species: Mycobacterium avium; measure: MIC90

Conditions beyond the fields shown may differ between rows.

{"compound": "CCn1cc(C(=O)O)c(=O)c2cc(F)c(N3CCC(CNCCO)C3)c(F)c21", "strain or isolate": "14 strains", "result": "32 µg/mL"}
{"compound": "O=C(O)c1cn(-c2ccc(F)cc2)c2cc(N3CCNCC3)c(F)cc2c1=O", "strain or isolate": "22 strains", "result": "128 µg/mL"}
{"compound": "CC[C@H]1OC(=O)[C@H](C)[C@@H](O[C@H]2C[C@@](C)(OC)[C@@H](O)[C@H](C)O2)[C@H](C)[C@@H](O[C@@H]2O[C@H](C)C[C@H](N(C)C)[C@H]2O)[C@](C)(OC)C[C@@H](C)C(=O)[C@H](C)[C@@H](O)[C@]1(C)O", "strain or isolate": "9 isolates (HIV+)", "result": "4 µg/mL"}
{"compound": "CO[C@H]1/C=C/O[C@@]2(C)Oc3c(C)c(O)c4c(O)c(c(/C=N/N5CCN(C)CC5)c(O)c4c3C2=O)NC(=O)/C(C)=C\\C=C\\[C@H](C)[C@H](O)[C@@H](C)[C@@H](O)[C@@H](C)[C@H](OC(C)=O)[C@@H]1C", "strain or isolate": "Clinical strains", "result": ">16 µg/mL"}
{"compound": "CC1CN(c2c(F)c(N)c3c(=O)c(C(=O)O)cn(C4CC4)c3c2F)CCN1C", "strain or isolate": "14 strains", "result": "2 µg/mL"}
{"compound": "CC[C@@H](CO)NCCN[C@@H](CC)CO", "strain or isolate": "9 isolates (HIV+)", "result": ">16 µg/mL"}
{"compound": "CC[C@@H](CO)NCCN[C@@H](CC)CO", "strain or isolate": "Reference strains", "result": "16 µg/mL"}
{"compound": "CO[C@H]1/C=C/O[C@@]2(C)Oc3c(C)c(O)c4c(O)c(c(/C=N/N5CCN(C)CC5)c(O)c4c3C2=O)NC(=O)/C(C)=C\\C=C\\[C@H](C)[C@H](O)[C@@H](C)[C@@H](O)[C@@H](C)[C@H](OC(C)=O)[C@@H]1C", "strain or isolate": "Clinical isolate", "result": "8 µg/mL"}
{"compound": "CC1COc2c(N3CCN(C)CC3)c(F)cc3c(=O)c(C(=O)O)cn1c23", "strain or isolate": "13 strains", "result": "64 µg/mL"}
{"compound": "CC(N)C1CCN(c2nc3c(cc2F)c(=O)c(C(=O)O)cn3C2CC2)C1", "strain or isolate": "14 strains", "result": "32 µg/mL"}
{"compound": "Cc1cc(-c2cc3c(cc2F)c(=O)c(C(=O)O)cn3C2CC2)cc(C)n1", "strain or isolate": "55 strains", "result": "3 µg/mL"}
{"compound": "Cc1c(F)c(N2CCNC(C)C2)c(C(F)(F)F)c2c1c(=O)c(C(=O)O)cn2C1CC1", "strain or isolate": "14 strains", "result": "16 µg/mL"}
{"compound": "CC(=O)O[C@H]1C[C@@]2(C)[C@@H](C[C@@H](O)[C@H]3[C@@]4(C)CC[C@@H](O)[C@@H](C)[C@@H]4CC[C@@]32C)/C1=C(\\CCC=C(C)C)C(=O)O", "strain or isolate": "22 strains", "result": "64 µg/mL"}
{"compound": "NCC[C@H](O)C(=O)N[C@@H]1C[C@H](N)[C@@H](O[C@H]2O[C@H](CN)[C@@H](O)[C@H](O)[C@H]2O)[C@H](O)[C@H]1O[C@H]1O[C@H](CO)[C@@H](O)[C@H](N)[C@H]1O", "strain or isolate": "Clinical isolate", "result": ">16 µg/mL"}
{"compound": "CO[C@H]1/C=C/O[C@@]2(C)Oc3c(C)c(O)c4c(O)c(c5c(c4c3C2=O)NC2(CCN(CC(C)C)CC2)N=5)=NC(=O)/C(C)=C\\C=C\\[C@H](C)[C@H](O)[C@@H](C)[C@@H](O)[C@@H](C)[C@H](OC(C)=O)[C@@H]1C", "strain or isolate": "Clinical strains", "result": "4 µg/mL"}
{"compound": "CCNCC1CCN(c2c(F)cc3c(=O)c(C(=O)O)cn4c3c2CCC4C)C1", "strain or isolate": "14 strains", "result": ">32 µg/mL"}
{"compound": "CNn1cc(C(=O)O)c(=O)c2cc(F)c(N3CCN(C)CC3)cc21", "strain or isolate": "22 strains", "result": "128 µg/mL"}
{"compound": "CC(C)N=c1cc2n(-c3ccc(Cl)cc3)c3ccccc3nc-2cc1Nc1ccc(Cl)cc1", "strain or isolate": "Clinical isolate", "result": "0.12 µg/mL"}
{"compound": "CC(C)N=c1cc2n(-c3ccc(Cl)cc3)c3ccccc3nc-2cc1Nc1ccc(Cl)cc1", "strain or isolate": "Reference strains", "result": "1 µg/mL"}
{"compound": "CCNCC1CCN(c2c(F)cc3c(=O)c(C(=O)O)cn(CC)c3c2F)C1", "strain or isolate": "22 strains", "result": ">64 µg/mL"}
{"compound": "CCN(CC)c1nc2c(s1)c1c(O)c3c(O)c(C)c4c(c32)C(=O)[C@@](C)(O/C=C/[C@H](OC)[C@@H](C)[C@@H](OC(C)=O)[C@H](C)[C@H](O)[C@H](C)[C@@H](O)[C@@H](C)/C=C/C=C(/C)C(=O)N1)O4", "strain or isolate": "50 strains", "result": "1 µg/mL"}

Repeating the first 2 entries:

compound | strain or isolate | result
CCn1cc(C(=O)O)c(=O)c2cc(F)c(N3CCC(CNCCO)C3)c(F)c21 | 14 strains | 32 µg/mL
O=C(O)c1cn(-c2ccc(F)cc2)c2cc(N3CCNCC3)c(F)cc2c1=O | 22 strains | 128 µg/mL

MIC50, MIC90 and the like: level of inhibition, or share of isolates inhibited.